Human monoclonal antibodies against the spike receptor-binding domain (heavy:light variable regions). IC50 against pseudoviruses bearing the spike of naturally observed variants; lower = stronger; >10 µg/ml means not reached at the top dose. No active / inactive call. The stated detection limit is 0.0005 µg/ml; values near or below 0.001 µg/ml lie at the floor of the assay.
B1: BD56-087 (protein)
chain 1: EVQLVESGGGLVKPGGSLRLSCAASRFTFISYTMNWVRQAPGKGLEWVSSISSGSTYIYYADSVKGRFTISRDNAKKSLYLQMNSLRVEDTAVYYCTRVESPDDYDLLTDAFDIWGQGTMVTVSS
chain 2: EIVLTQSPGTLSLSPGERATLSCRASQSISSSYLAWYQQKPGRAPRLLIYAAFSRAAGIPDRFSGSESGTDFTLTISRLEPEDFAVYYCQQYGSSSITFGQGTRLDIK
B2: BD56-089 (protein)
chain 1: QVQLVQSGAEVKKPGSSVKVSCRTSGGSFGSFAISWVRQAPGQGPEWMGKIIPILGIPNHAQKFQGRVTITADKSTSTAYMDLSSLRSEDTAVYYCARDNGDYYDSSGLMTEYFQHWGQGTLVTVSS
chain 2: QSVLTQPPSVSGAPGQRVTISCTGSNSNIGAGYDVHWYLQLPGTAPKLLIYGHTNRPSGVPDRFSGSKSGTSASLAITGLQAEDEADYYCQSYDSSLSGSVFGSGTKVTVL
B3: BD56-091 (protein)
chain 1: QVQLQQWGAGLLKPSETLYLTCAVYSGSFSGYYWSWIRQPPGKGLEWIGEINHRGTTNYNPSLKSRVTISVDTSKNQFSLKLNSVTAADTAVYYCARDHDYDSSGYYYPASSGLVDSWGQGTLVTVSS
chain 2: EIVLTQSPDFQSVTPKEKLTITCRASQNIGNNLHWYQQKPDQPPKVLIKYASQSFSGVPSRFTGSRSGTDFTLTINSLEAEDAATYYCQQSSSLPWTFGQGTKVEIK
B4: BD56-092 (protein)
chain 1: QVQLVQSGAEVKKPGSSVKVSCKASGGTYGSYTITWVRQAPGHGLEWMGGIIPLLATSNYADKLQGRVTITADKSTSTAYMELSSLRSEDTAVYYCASTLGYSDYGSSPYMDVWGKGTTVTVSS
chain 2: QSVLTQPPSVSGAPGQRITISCSGSSSNIWAGYDVHWYQQLPGTAPKLLIFRNSNRPSDVPDRFSGSKSGTSASLAITGLQAEDEADYFCQSYDSSLNGVLFGGGTKVTVL
B5: BD56-096 (protein)
chain 1: QVQLVQSGAEVKKPGSSVKVSCKASGGTFSSYTMTWVRQAPGQGLEWMGRIIPFLGVADLAQKFQGRGTITADKSTSTVYMELSSLTSEDTAVYFCAREGSMVQGVTYGTYWFDPWGQGTLVTVSS
chain 2: QSVLTQPPSVSGAPGQRVTISCIGSNSNIGAGYDVQWYQQLPGTAPKLLIYGNINRPSGVPDRFSGSKSDTSASLVIIGLQAEDEADYYCQSYDSSLSGSLFGGGTKLTVL
B6: BD56-105 (protein)
chain 1: VTLKESGPVLVKPTGTLTLTCTVSGFSLNNARMGVSWIRQPPGKALEWLAHIFSNDEKSYNTSLKSRLSISRDTSKSQVVLSMTNMDPVDTATYYCARTSSDSGTYYDDIWFDPWGQGTRVTVSS
chain 2: SSELRQPPSVSVSPGQTARITCSGHTLPNQYAYWYQQRPGQAPVLVIFKDNARPSGIPARFSGSNSGTTVTLTISGVQAEDEADYYCQTADSSGVVFGGGTKLTVL
B7: BD56-110 (protein)
chain 1: QVQLVESGGGVVQPGRSLRLSCAASGFTFSSHAMHWVRQAPGKGLEWVAVILNDGTYKDYGDSVKGRFTISRDNSKNTLYLQMNSLRVEDTAVYYCARDYGDYVTWFDSWGQGTLVSVSS
chain 2: DIQMTQSPSSLSASIGDRVTITCRASQSIRRDLNWYQQKPGNAPKLLIYSASSLQSGVPSRFSGSGSGTEFTLSISSLQPEDLATYYCQQSYNTPPWTFGQGTKVEVK
B8: BD56-115 (protein)
chain 1: QVQLVQSGAEVKKPGSSVKVSCKASGGTFSSHPISWVRQAPGQGLEWMGRVIPILGIANYAQKFQARVAITADKSTSTAYMELSRLRSDDTAVYYCARDVGYSDSGSSYYFDYWGQGILVTVSS
chain 2: QSVLTQPPSVSGAPGQRVTVSCTGSSSNIGAGYDVHWYQQLPGAAPKLLIYRNNNRPSGVPDRFSGSKSGTSASLAITGLQAEDEAAYYCQSYDSSLSASVFGGGTKLTVL
B9: BD56-116 (protein)
chain 1: EVQLVESGGGLVQPGGSLRLSCAASGFTFSNYDMHWVRQVTGKGLEWVSTIGTAGDTYYSDSVKGRFTISRDNVKKSLYLQMKSLRAGDTAVYYCARGSSESVVTLFDHWGQGAQVTVSS
chain 2: DIQMTQSPSSLSASIGDRVIITCRASQSISRYLNWYQQKPGKAPELLIYSASTLQDGVPSRFSGSGSGTDFTLTISSLQPEDFATYYCQQSYTNPSITFGQGTRLEIK
B10: BD56-117 (protein)
chain 1: QVQLVESGGGVVRPGRSLRLSCAASGFTFSNYGMHWVRQAPGKGLEWVAVISDDGTYKSYADSVKGRFTISRDNSKNTLYLQFNSLRAEDTAVYYCARDEAETLMVTWFDYWGQGTLVTVSP
chain 2: DIQMTQSPSSLSASVGDRVTITCRASQSVNRYLNWYQQKPGKAPKLLIYASSNLHSGVPSRFSGSGSGTDFTLTISSLQPEDFATYYCQQSYNTPPWTFGQGTKVEVK
B11: DH1179 (protein)
chain 1: QVQLVESGGGVVQPGRSLRLSCAASGFTFTNNAMHWVRQAPGKGLEWVAVISYDGSNRYYADSVKGRFTISRDNSKNTLYLQMNSLRAEDTAVYYCAREDYYDSSGSFDHWGQGILVTVSS
chain 2: QSALTQPASVSESPGQSITISCTGTSSDVGGYNYVSWYQQHPGKAPKLMTYDVSNRPSGVSNRFSGSKSGNTASLTISGLQAEDEADYYCSSYSSSSTWVFGGGTKLTVL
B12: BD56-119 (protein)
chain 1: EVQLLVSGGGLVQPGGSLRLSCAASGFTFSSCAMTWVRQAPGKGLECVSVIYGGGNSTYYADSVKGRFTIYRDTSKNRLYLQMNSLRADDTAIYYCAKSPQPRTTLELRGAPDYFDFWGQGTLVSVSS
chain 2: SYVLTQPPSVTVAPRQTARVTCGGDDIGSKSVHWYQQKPGQAPVLVIYYDNDRPSGIPERFSGSNSGNTATLTISRVEAGDEADYYCQVWDGSSAHFWVFGGGTKLTVL

Legend:
Assay in all cases: pseudovirus neutralization IC50; higher = weaker neutralization
[1] = biological target: SARS-CoV-2 Omicron BA.1 spike pseudovirus
Procedure: (§1)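 Single-round VSV luciferase pseudovirus mixed with antibody dilutions for 1 h and put on Huh-7 cells for about a day; IC50 from the dose curve.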

[2] = biological target: SARS-CoV-2 Omicron BA.2 spike pseudovirus
Procedure: as §1

[3] = biological target: SARS-CoV-2 Omicron BA.2.75 spike pseudovirus
Procedure: as §1

[4] = biological target: SARS-CoV-2 Omicron BA.5 spike pseudovirus
Procedure: as §1

[5] = biological target: SARS-CoV-2 Omicron BQ.1.1 spike pseudovirus
Procedure: as §1

[6] = biological target: SARS-CoV-2 Omicron XBB spike pseudovirus
Procedure: as §1

[7] = biological target: SARS-CoV-2 early D614G spike pseudovirus
Procedure: as §1

Row | Binder | pseudovirus neutralization IC50 [1] [µg/mL] | pseudovirus neutralization IC50 [2] [µg/mL] | pseudovirus neutralization IC50 [3] [µg/mL] | pseudovirus neutralization IC50 [4] [µg/mL] | pseudovirus neutralization IC50 [5] [µg/mL] | pseudovirus neutralization IC50 [6] [µg/mL] | pseudovirus neutralization IC50 [7] [µg/mL]
1 | B1 | 0.0723 | 0.0817 | 0.0569 | > 10 | > 10 | > 10 | 0.696
2 | B2 | 1.03 | 0.965 | 1.26 | > 10 | > 10 | > 10 | 0.959
3 | B3 | 0.0331 | > 10 | > 10 | > 10 | > 10 | > 10 | 0.00918
4 | B4 | 8.43 | 5.4 | 6.5 | 5.94 | 4.96 | 3.84 | 6.32
5 | B5 | 0.0498 | 0.0406 | 0.042 | 0.362 | 1.45 | 0.663 | 0.184
6 | B6 | > 10 | > 10 | > 10 | > 10 | > 10 | > 10 | > 10
7 | B7 | 0.972 | 0.903 | 0.968 | 0.856 | 1.89 | 2.12 | 0.81
8 | B8 | 0.688 | 0.75 | 0.556 | > 10 | > 10 | 7.28 | 1.12
9 | B9 | > 10 | > 10 | > 10 | > 10 | > 10 | > 10 | 7.58
10 | B10 | > 10 | > 10 | > 10 | > 10 | > 10 | > 10 | > 10
11 | B11 | > 10 | > 10 | > 10 | > 10 | > 10 | > 10 | 0.0199
12 | B12 | > 10 | > 10 | > 10 | > 10 | > 10 | > 10 | > 10

Reference: the supplement of paper PMC9931576
